Pooled drug test results. Numbers come from NIAID ChemDB, via PubChem.

Common to all: whole-cell or culture tests; agent: Mycobacterium tuberculosis

Blank or dashed fields: not listed here.

smiles,measure,conditions,changes,read by,cells,strain or isolate,dose,value
CC1=C2[C@@H](OC1=O)[C@]1(C)C(=O)CC[C@H]1[C@@H](C)C[C@@H]2O,MIC,-,-,-,-,H37Rv,-,128 µg/mL
O=C(O)COc1ccc(-c2ccc(C(F)(F)F)cc2)c(CN2CCN(c3ccccn3)CC2)c1,MIC,-,-,broth dilution,-,H37Rv (ATCC 27294),-,32 µg/mL
CCCCCCCCCCOCCCCOP(=O)(O)C[C@@H]1O[C@H](CO)[C@@H](O)[C@@H]1O,MIC,-,-,-,-,H37Rv,-,>3.13 µg/mL
O=C(N1CCN(c2ccccc2)C1=O)N1CCN(c2ccccc2)C1=O,MIC bound,-,-,BACTEC,-,H37Rv,-,>12.5 µg/mL
COc1ccc2cc(CN(C(=O)Nc3ccc(F)cc3F)C3CCCCCC3)c(=O)[nH]c2c1,MIC,7 d,-,broth dilution,-,H37Rv (ATCC 27294),-,>64 µg/mL
CC(=O)O[C@H]1C[C@@]2(C)[C@@H](C[C@@H](O)[C@H]3[C@@]4(C)CC[C@@H](O)[C@@H](C)[C@@H]4CC[C@@]32C)/C1=C(\CCC=C(C)C)C(=O)O,MIC,-,-,-,-,H37Rv,-,4 µg/mL
CCCCc1ccc(NCc2ccc(O)c(OC)c2)cc1,EC50,-,-,resazurin,-,H37Ra,-,111 µM
C/C(O)=C(/C=N/C(=S)Nc1ccc(Cl)c(Cl)c1)C(=O)Nc1ccccc1C,inhibition,-,-,resazurin,-,H37Rv,6.25 µg/mL,56%
NC(=O)c1cnccn1,MIC,-,-,-,-,H37Rv,-,100 µg/mL
COC(=O)[C@@H]1Cc2c([nH]c3ccccc23)C(C)(C)N1,inhibition,-,-,resazurin,-,H37Rv,6.25 µg/mL,14%
CC(=O)c1ccc(-c2cn(Cc3cccc(Cl)c3)nn2)cc1,MIC50,-,-,turbidity,-,BioA overexpression strain,-,>50 µM
CC1(C)CCCC2(C)C3C(O)CC2(C)C(O)C31,MIC bound,-,-,resazurin,-,H37Rv,-,>6.25 µg/mL
COC1(c2nc3ccc(F)cc3s2)C=CC(=NS(=O)(=O)c2ccc(C)cc2)C=C1,inhibition,-,-,-,-,H37Rv,6.25 µg/mL,78%
COc1ccc(/C=C2\N=C(c3ccccc3)OC2=O)c(Cl)c1OC,MIC bound,-,-,BACTEC,-,H37Rv,-,>12.5 µg/mL
CC1COc2c(N3CCN(C)CC3)c(F)cc3c(=O)c(C(=O)O)cn1c23,MIC50,-,-,-,-,-,-,0.5–1.3 µg/mL
CN1CCN(CCCN2c3ccccc3Sc3ccc(C(F)(F)F)cc32)CC1,MIC,-,-,-,-,-,-,4–32 µg/mL
CC1=NN(c2ccc3c(c2)Nc2ccccc2S3)C2NC(=S)NC(c3ccccc3O)C12,MIC,-,-,BACTEC / broth dilution / radiometric,-,H37Rv,-,<6.25 µg/mL
C=C1C(=O)O[C@@H]2C1[C@@H](O)C[C@H](C)[C@@H]1CCC(=O)[C@@]21C,MIC,-,-,-,-,H37Rv,-,128 µg/mL
CSC(=S)N/N=C(/C)c1cccs1,MIC,-,-,-,-,PAS-R,-,0.4 µg/mL
CCCCCCCCCCCCCCN(CCO)C[C@@H]1O[C@@H]2OC(C)(C)O[C@@H]2[C@H]2OC(C)(C)O[C@H]21,MIC,-,-,-,-,H37Rv,-,6.25 µg/mL
Brc1cncnc1-c1cccs1,MIC,-,-,broth dilution,-,H37Rv,-,0.7 µg/mL
COC(=O)COc1ccc(-c2cccc(C#N)c2)c(CN2CCN(c3ccccn3)CC2)c1,MIC,-,-,broth dilution,-,H37Rv (ATCC 27294),-,32 µg/mL
O=C1CSC(c2cccs2)N1c1nncs1,MIC bound,-,-,BACTEC,-,H37Rv,-,>12.5 µg/mL
CO/N=C/c1c2c(O)c3c(O)c(C)c4c(c3c1O)C(=O)[C@@](C)(O/C=C/[C@H](OC)[C@@H](C)[C@@H](OC(C)=O)[C@H](C)[C@H](O)[C@H](C)[C@@H](O)[C@@H](C)/C=C/C=C(/C)C(=O)N2)O4,MIC,-,-,-,-,H37Rv,-,0.1 µg/mL
C=C1C(=O)O[C@@H]2C[C@@]3(C)CCC=C(C)[C@@H]3C[C@H]12,MIC,-,-,-,-,H37Rv,-,128 µg/mL
CC1=NN(c2ccc3c(c2)Nc2ccccc2S3)C2NC(=S)NC(c3ccccc3[N+](=O)[O-])C12,MIC,-,-,BACTEC / broth dilution / radiometric,-,H37Rv,-,<6.25 µg/mL
CCOC(=O)c1ccc(NS(=O)(=O)c2ccc(NC3=CC(=O)c4ccccc4C3=O)cc2)cc1,MIC,-,-,-,-,-,-,2 µg/mL
CO[C@H]1/C=C/O[C@@]2(C)Oc3c(C)c(O)c4c(O)c(c(/C=N/N5CCN(C)CC5)c(O)c4c3C2=O)NC(=O)/C(C)=C\C=C\[C@H](C)[C@H](O)[C@@H](C)[C@@H](O)[C@@H](C)[C@H](OC(C)=O)[C@@H]1C,MIC50,-,-,-,-,10 strains,-,0.06 µg/mL
CCCCCCCCCCCCCCc1ccc(NCc2ccc(O)c(OC)c2)cc1,inhibition,-,-,resazurin,-,H37Ra,200 µM,<50%
CC12OC1(C)C1C(=O)OCC1C2=O,MIC bound,-,-,BACTEC,-,H37Rv,-,>12.5 µg/mL
CC(=O)c1ccc(-c2cn(Cc3cccc(Cl)c3)nn2)s1,MIC50,-,-,turbidity,-,BioA overexpression strain,-,>50 µM
C/C(CC(=O)Nc1cccc([N+](=O)[O-])c1)=N\NC(=O)C[n+]1ccccc1.[Cl-],MIC bound,-,-,BACTEC,-,H37Rv,-,>12.5 µg/mL
CO[C@H]1/C=C/O[C@@]2(C)Oc3c(C)c(O)c4c(O)c(c5c(c4c3C2=O)NC2(CCN(CC(C)C)CC2)N=5)=NC(=O)/C(C)=C\C=C\[C@H](C)[C@H](O)[C@@H](C)[C@@H](O)[C@@H](C)[C@H](OC(C)=O)[C@@H]1C,MIC,-,-,-,-,MDR-2 (MDR),-,>1.6 µg/mL
CCCCCCCCCCCCCCCCOCCCCOP(=O)(O)C[C@@H]1O[C@H](CO)[C@@H](O)[C@@H]1O,MIC,-,-,-,-,H37Rv,-,3.13 µg/mL
CN(C)CC(=O)Nc1cc(N(C)C)c2c(c1O)C(O)=C1C(=O)[C@]3(O)C(O)=C(C(N)=O)C(=O)[C@@H](N(C)C)[C@@H]3C[C@@H]1C2,MIC,-,-,-,-,2 strains,-,>32 µg/mL
CO[C@H]1/C=C/O[C@@]2(C)Oc3c(C)c(O)c4c(O)c(c(/C=N/N5CCN(C)CC5)c(O)c4c3C2=O)NC(=O)/C(C)=C\C=C\[C@H](C)[C@H](O)[C@@H](C)[C@@H](O)[C@@H](C)[C@H](OC(C)=O)[C@@H]1C,MIC,-,-,-,-,H37Rv,-,0.5 µg/mL
O=C(Nc1ccc(C2=NCCN2)cc1)Nc1cccc(C(=O)Nc2ccc(C3=NCCN3)cc2)c1,inhibition,-,-,BACTEC,-,H37Rv,12.5 µg/mL,93%
C=C1CC[C@@H](O)[C@]2(C)CC[C@@H](C(=C)CO)[C@H](O)[C@@H]12,MIC,-,-,-,-,H37Rv,-,>128 µg/mL
Cn1cc(NC(=O)c2cc(NC(=O)Nc3cc(C(=O)Nc4cc(C(=O)NCCC(N)=[NH2+])n(C)c4)n(C)c3)cn2C)cc1C(=O)NCCC(N)=[NH2+],inhibition,-,-,BACTEC,-,H37Rv,12.5 µg/mL,99%
CCCCCCCCCOCCCCOP(=O)(O)C[C@@H]1O[C@H](CO)[C@@H](O)[C@@H]1O,MIC,-,-,-,-,H37Rv,-,>3.13 µg/mL
Brc1cncnc1-c1ccc(-c2ccccc2)s1,MIC,-,Rifampicin- and isoniazid-resistant,broth dilution,-,MDR,-,1.5 µg/mL
COc1cc(CNC(=O)CCCC/C=C/C(C)C)ccc1O,MIC90,-,-,resazurin,-,H37Ra,-,200 µM
Cc1c(CN2CCSCC2)cc(-c2ccc(F)cc2)n1-c1ccccc1F,MIC,-,-,-,-,H37Rv,-,2 µg/mL
CC(C)=CCC/C(C)=C/CC/C(C)=C/CO,MIC,-,-,-,-,H37Rv,-,8 µg/mL
O=C(O)C1=C(C(=O)O)C2CCCC3C4CCCCC4N(N1)C23,inhibition,-,-,resazurin,-,H37Rv,6.25 µg/mL,-1%
CC(=O)c1ccc(N2CCN(C(=O)c3cscn3)CC2)cc1,MIC50,-,-,turbidity,-,Wild type without biotin,-,>50 µM
CN1CCCCC1CCN1c2ccccc2Sc2ccc(S(C)=O)cc21,MIC,-,-,-,-,5 isolates (polydrug resistance),-,4 µg/mL
CC(c1nnc(SCCOc2ccc(F)cc2)n1Cc1ccc(F)cc1)N(C)C(=O)c1ccccc1C(F)(F)F,MIC,7 d,-,broth dilution,-,H37Rv (ATCC 27294),-,>64 µg/mL
C/C(=N/NC(=S)N1CCC(c2ccccc2)CC1)c1nccnc1C,MIC,-,-,-,-,PAS-R,-,12.5 µg/mL
NNC(=O)c1ccncc1,MIC,-,-,-,-,H37Rv,-,0.05 µg/mL
CN(C)CCCN1c2ccccc2Sc2ccc(Cl)cc21,MIC,-,-,-,-,21 isolates (multidrug resistance),-,4 µg/mL
CCCCCCCCNCc1ccc(O)c(OC)c1,MIC90,-,-,resazurin,-,H37Ra,-,200 µM
CC(=O)N1CCc2c(sc(NC(=O)c3cccs3)c2C(N)=O)C1,MIC100,-,-,agar,-,H37Rv (ATCC 27294),-,9.15 µM
CCCCCCCCCCCCCCCCNCCO,MIC,-,-,-,-,H37Rv,-,12.5 µg/mL
N#Cc1nc(-c2cccnc2)oc1N,inhibition,-,-,resazurin,-,H37Rv,6.25 µg/mL,-6%
O=C1CCc2cc(N3CCN(C(=O)c4cccc(Cl)c4)CC3)ccc21,MIC90,-,-,turbidity,-,Wild type without biotin,-,16 µM
Cc1nn(C(=S)S)c(C)c1N=Nc1ccc(Br)cc1,inhibition,-,-,BACTEC,-,H37Rv,12.5 µg/mL,47%
CO[C@H]1/C=C/O[C@@]2(C)Oc3c(C)c(O)c4c(O)c(c(/C=N/N(C)C)c(O)c4c3C2=O)NC(=O)/C(C)=C\C=C\[C@H](C)[C@H](O)[C@@H](C)[C@@H](O)[C@@H](C)[C@H](OC(C)=O)[C@@H]1C,MIC,-,-,-,-,H37Rv,-,0.05 µg/mL
COc1ccc(C2NC(=S)NC3C2C(C)=NN3c2ccc3c(c2)Nc2ccccc2S3)cc1,MIC,-,-,BACTEC / broth dilution / radiometric,-,H37Rv,-,>6.25 µg/mL
C=C1C(=O)O[C@H]2[C@H]1[C@H](OC(=O)/C(C)=C/COC(C)=O)C[C@]1(CO1)[C@@H]1C(O)[C@H]3O[C@@]3(C)[C@H]21,MIC bound,-,-,BACTEC,-,H37Rv,-,>12.5 µg/mL
CC1=NN(c2ccc3c(c2)Nc2ccccc2S3)C2NC(=S)NC(c3ccc(O)cc3)C12,MIC,-,-,BACTEC / broth dilution / radiometric,-,H37Rv,-,>6.25 µg/mL
O=C(N/N=C/CCCCCCCc1c([N+](=O)[O-])ccc(O)c1C(=O)O)c1ccncc1,MIC,-,-,-,-,H37Rv,-,0.5–10 µg/mL
CC[N+](C)(CC)CCNc1cc2c(c3c(=O)c4ccccc4sc13)CCCC2,MIC,-,-,BACTEC,VERO,H37Rv,-,12.5 µg/mL
Nc1nc(-c2ccc([N+](=O)[O-])cc2)cc(-c2cn(-c3ccccc3)nc2-c2ccc(F)cc2)n1,EC90,-,-,BACTEC / radiometric,-,H37Rv,-,>220 µM
C[C@@H]1CN(c2c(F)c(N)c3c(=O)c(C(=O)O)cn(C4CC4)c3c2F)C[C@H](C)N1,MIC90,-,-,-,-,-,-,0.5 µg/mL
CCN(CC)Cc1cc(Nc2cc(Cl)c3ccc(N(C)C)cc3n2)ccc1O.Cl.Cl.Cl,MIC,-,-,-,VERO,H37Rv,-,6.25 µg/mL
COC(=O)[C@]12CC[C@@H](C)[C@@](C)(O)[C@H]1C1=CC[C@@H]3[C@@]4(C)CC[C@H](O)C(C)(C)[C@@H]4CC[C@@]3(C)[C@]1(C)CC2,MIC,-,-,-,-,H37Rv,-,32 µM
CO[C@H]1[C@@H](OC(=O)/C=C/C=C/C=C/C=C/C(=O)O)CC[C@@]2(CO2)[C@@H]1[C@@]1(C)O[C@@H]1CC=C(C)C,MIC bound,-,-,BACTEC,-,H37Rv,-,>12.8 µg/mL
O=C(O)c1ccc(NS(=O)(=O)c2ccc(NC3=CC(=O)c4ccccc4C3=O)cc2)cc1,MIC,-,-,-,-,-,-,0.5 µg/mL
CC(NC(=O)c1c(F)cccc1Cl)c1nnc(SCc2ccc(F)cc2)n1Cc1cccnc1,MIC,7 d,-,broth dilution,-,H37Rv (ATCC 27294),-,>64 µg/mL
O=C(c1cccc(Cl)c1)N1CCN(c2ccc([N+](=O)[O-])cc2)CC1,MIC90,-,-,turbidity,-,BioA underexpression strain,-,25.6 µM
Cc1cn2c(C(=O)NCc3ccc(N4CCN(c5ccc(C(F)(F)F)cn5)CC4)c(F)c3)c(C)nc2s1,EC50,-,-,luminescence,Human liver microsomes,H37Rv,-,>20 µM
CSc1nc(Cl)c(C#N)c(-c2ccc(F)cc2F)n1,MIC,-,-,-,-,H37Rv,-,>25 µg/mL
NNC(=O)c1ccncc1,MIC,-,-,-,-,MDR-2 (MDR),-,>12.8 µg/mL
CO[C@H]1/C=C/O[C@@]2(C)Oc3c(C)c(O)c4c(O)c(c(/C=N/N5CCN(C/C=C/c6ccccc6)CC5)c(O)c4c3C2=O)NC(=O)/C(C)=C\C=C\[C@H](C)[C@H](O)[C@@H](C)[C@@H](O)[C@@H](C)[C@H](OC(C)=O)[C@@H]1C,MIC,-,-,-,-,Kurono,-,0.1 µg/mL
COc1cc(CNc2ccccc2B2OC(C)(C)C(C)(C)O2)ccc1O,EC50,-,-,resazurin,-,H37Ra,-,46.2 µM
OC(/C=C/c1ccccc1)(c1ccccc1)c1nc2ccccc2s1,inhibition,-,-,resazurin,-,H37Rv,6.25 µg/mL,12%
CC(=O)NC[C@H]1CN(c2ccc(N3CCOCC3)c(F)c2)C(=O)O1,MIC50,-,-,-,-,117 strains,-,0.5 µg/mL
O=C(NNS(=O)(=O)c1ccc(NC2=CC(=O)c3ccccc3C2=O)cc1)c1ccccc1,MIC,-,-,-,-,-,-,0.12 µg/mL

MIC bound: limit read from a one-dose screen. Percent inhibition refers to the dose given; in toxicity tests it is the harm to the cells. ECn: concentration that inhibits the pathogen or its effect by n%. MIC50, MIC90 and the like: level of inhibition, or share of isolates inhibited. a–b is a range or a potency band. Rows are shuffled and stem from different studies.